Reference: patent publication US20090324743A1, “PULMONARY DRUG DELIVERY” (UNIVERSITY OF STRATHCLYDE, priority 2008, published 2009)

Test system: B16 F0 cells
Assay: In vivo lung cancer efficacy study, organ weights
Set-up: species or system BALB/c mice
Conditions: sacrificed day 14
[1] = Table 5, 0.5 mg/ml inhalation 6.5 mins on day 7
[2] = Table 5, 4.44 mg/kg iv (0.2 ml of 0.5 mg/ml) on day 7
[3] = Table 6 Expt 1, inhalation on days 4, 7, 9 and 11, cisplatin solution 0.5 mg/ml, processed cisplatin-NIV as prepared
[4] = Table 6 Expt 2, inhalation day 7 only, 0.1 mg/ml

## [NH2][Pt]([NH2])([Cl])[Cl] [Cisplatin solution, cisplatin]
[1]
  Mean organ weight, Kidney: 0.19 ± 0.04 g
  Mean organ weight, Spleen: 0.24 ± 0.01 g
[2]
  Mean organ weight, Kidney: 0.13 ± 0.01 g
  Mean organ weight, Spleen: 0.22 ± 0.01 g
[3]
  Mean organ weight, Kidney: 0.15 ± 0.01 g
  Mean organ weight, Spleen: 0.13 ± 0.01 g
[4]
  Mean organ weight, Kidney: 0.21 ± 0.01 g
  Mean organ weight, Spleen: 0.13 ± 0.01 g
